Pooled drug test results. Numbers come from NIAID ChemDB, via PubChem.

All rows: growth or infection tests; organism: HIV-1; measure: inhibition

An empty or dashed field is not shown. Rows are shuffled and stem from different studies. Inhibition is in % at the dose shown (toxicity tests: loss of growth or viability). a–b is a range or a potency band.

smiles,strain,read by,tested at,changes,cells,setting,value
CC(=O)N(C)c1nc(C(=O)NCc2ccc(F)cc2)c(O)c2ncccc12,,p24,0.125 µM,,MT-4,10% FBS,>95%
C=C(C)[C@@H]1CC[C@]2(C(=O)NCCCCCCCC(=O)N[C@@H](CC(C)C)[C@@H](O)CC(=O)O)CC[C@]3(C)[C@H](CC[C@@H]4[C@@]5(C)CC[C@H](O)C(C)(C)[C@@H]5CC[C@]43C)[C@@H]12,LAI,syncytia,10 µM,I84S,HeLa P4 + HeLa,,22%
Cc1cc2ccccc2c(-c2ccc3c4c(ccnc24)CCO3)c1[C@H](OC(C)(C)C)C(=O)O,NL4-3,p24,0.03 µM,,PBMC,,95%
CCN(CC)C(=O)OCC1CN(Cc2noc(=O)[nH]2)CCN1C(=O)c1cc(OC)c(OC)c(OC)c1,BaL,RT activity,100 µM,,MDM,,13%
Cc1cccc2c(C(=O)C(=O)N3CCN(C(=O)c4ccccc4)CC3)c[nH]c12,,RT activity,10 µM,,MT-2,,>98%
CCCCn1c(C)c(C(=O)OC)c(C(=O)OC)c1Cc1ccccc1,IIIB,p24 / ELISA,1 µM,,PBL,,11%
C=CCCOC(=O)N1C=CC(C#N)C(C(C)=O)=C1,IIIB,syncytia,50 µM,,MOLT-3,,0%
N[C@H]1CONC1=O,N1T,p24,10 µg/mL,,CEM,,85%
N#Cc1cc(Cl)cc(Oc2c(Cl)ccc3c2cnn3Cc2[nH]nc3nc(N)ccc23)c1,,,0.043 µM,,MT-4,50% human serum,>95%
Nc1nc(N)c2nnn([C@@H]3C[C@H](CO)[C@H](O)[C@@H]3O)c2n1,,cytopathic effect,62.5 µg/mL,,CEM-V/MT-2 + CEM,,0%
Nc1ccn([C@@H]2O[C@H](CO)C=C2F)c(=O)n1,BRU,RT activity,8 µM,,PBMC,,90%
N#Cc1cc(Cl)cc(Oc2cc(OCc3[nH]nc4ncccc34)ccc2Cl)c1,,,0.015 µM,K103N,MT-4,,>95%
C=Cc1c(C)c2cc3[nH]c(cc4nc(cc5nc(cc1[nH]2)C(C)=C5CCC(=O)OC)C(CCC(=O)OC)=C4C)c(C)c3C=C,LAV,cytopathic effect,10 µg/mL,,MT-4,,97%
COc1cc(N=Nc2cc(S(=O)(=O)O)cc3cc(S(=O)(=O)O)cc(O)c23)c(C)cc1NC(=O)Nc1cc(C)c(N=Nc2cc(S(=O)(=O)O)cc3cc(S(=O)(=O)O)cc(O)c23)cc1OC,LAV-BR,p24 / ELISA,50 µM,,PBL,,86%
O=S(=O)(O)c1c2ccccc2c(-c2c3nc(c(-c4c5ccccc5c(S(=O)(=O)O)c5ccccc45)c4ccc([nH]4)c(-c4c5ccccc5c(S(=O)(=O)O)c5ccccc45)c4nc(c(-c5c6ccccc6c(S(=O)(=O)O)c6ccccc56)c5ccc2[nH]5)C=C4)C=C3)c2ccccc12,IIIB,β-galactosidase,5 µg/mL,,MAGI,,70%
C=Cc1c(C)c2cc3[nH]c(cc4nc(cc5nc(cc1[nH]2)C(C)=C5CCCO)C(CCCO)=C4C)c(C)c3C=C,LAV,cytopathic effect,10 µg/mL,,MT-4,,97%
CCCCC/C=C/C=C1/C(=O)C=CC1C/C=C\CCCC(=O)O,,p24 / ELISA,0.8 µM,,U-937,,53%
O=C(C(=O)N1CCN(C(=O)c2ccc(C(F)(F)F)o2)CC1)c1c[nH]c2c(F)ccc(F)c12,,luciferase,10 µM,,HeLa + HELA CD4+/CCR5,,>98%
CC1=C(CCC(=O)O)c2cc3nc(cc4[nH]c(cc5[nH]c(cc1n2)c(C)c5C(C)O)c(C)c4C(C)O)C(C)=C3CCC(=O)O,LAV,cytopathic effect,10 µg/mL,,MT-4,,99%
O=C(O[C@@H]1[C@H](OC(=O)c2ccccc2)[C@@H](CO)O[C@H]1n1cnc2c(N(C(=O)c3ccccc3)C(=O)c3ccccc3)ncnc21)c1ccccc1,NL4-3,β-galactosidase,10 µM,,HeLaP4,,0%
CCN(CC)C(=O)OCC1CN(C(=S)c2cc(OC)c(OC)c(OC)c2)CCN1C(=O)c1cc(OC)c(OC)c(OC)c1,BaL,RT activity,10 µM,,MDM,,41%
CCOC(=O)N1C=CC(C#N)C(C(C)=O)=C1,IIIB,syncytia,50 µM,,MOLT-3,,0%
Cc1ccc(C2CC2)c(-c2ccc3c(c2)CCCO3)c1[C@H](OC(C)(C)C)C(=O)O,NL4-3,luminescence,0.013 µM,,MT-4,,89%
COC(=O)c1c(C(=O)OC)c(-c2ccccc2)n(-c2ccccc2)c1C,IIIB,p24 / ELISA,10 µM,,PBL,,6%
CCc1cccc2c(C(=O)C(=O)N3CCN(C(=O)c4ccccc4)C[C@H]3C)c[nH]c12,,luciferase,10 µM,,HeLa + HELA CD4+/CCR5,,>98%
O=C(O)CCC(CCC(=O)O)(CCC(=O)O)NC(=O)CCC(CCC(=O)NC(CCC(=O)O)(CCC(=O)O)CCC(=O)O)(CCC(=O)NC(CCC(=O)O)(CCC(=O)O)CCC(=O)O)NC(=O)CCCOC(=O)C1(C(=O)OCCCC(=O)NC(CCC(=O)NC(CCC(=O)O)(CCC(=O)O)CCC(=O)O)(CCC(=O)NC(CCC(=O)O)(CCC(=O)O)CCC(=O)O)CCC(=O)NC(CCC(=O)O)(CCC(=O)O)CCC(=O)O)C2c3cc4c5c6c3-c3c(cc7c8c3C6C3c6c-5c(cc5ccc9cc(c-8c3c9c65)C7)C4)C21,xxBRU,cytopathic effect,1.1 µM,,PBMC,,90%
CCCCn1c(C)c(C(=O)OC)c(C(=O)OC)c1C,IIIB,p24 / ELISA,10 µM,,PBL,,22%
Nc1nc(=O)n([C@H]2CC[C@@H](CO)O2)cc1F,IIIB,cytopathic effect / MTT,0.4 µM,,MT-2,,23%
CCc1c(C)c2cc3[nH]c(cc4nc(c(C)c5nc(cc1[nH]2)C(C)=C5)C(CCC(=O)O)=C4C)c(C)c3CC,LAV,cytopathic effect,10 µg/mL,,MT-4,,97%
O=C1c2c(O)c(O)cc(=O)n2CCN1Cc1ccccc1,,p24 / ELISA,2.5 µM,,MT-4,,≥95%
Nc1nc(N)c2ncn([C@@H]3C[C@H](CO)[C@@H](O)[C@@H]3O)c2n1,,cytopathic effect,125 µg/mL,,CEM-V/MT-2 + CEM,,0%
CC(=O)N1CCC(C(=O)N(CCCN2CCC(Cc3ccc(C(N)=O)cc3)CC2)c2ccc(C)c(Cl)c2)CC1,CTV Clinical isolates,p24,0.005 µM,,PBMC,,90%
CC(C)(C)C(=O)Nc1ccn([C@H]2CC[C@@H](CO)O2)c(=O)n1,,cytopathic effect,100 µM,,,,42%
O=C1c2c(O)c(O)cc(=O)n2CCN1Cc1ccc(F)c(Cl)c1,,p24 / ELISA,0.25 µM,,MT-4,,≥95%
N#Cc1cc(Cl)cc(Oc2c(Cl)ccc3c2cnn3Cc2[nH]nc3ncccc23)c1,,,0.011 µM,,MT-4,,>95%
COc1ccc(OCC2OC2COC(=O)c2ccc(O)c(OC)c2)cc1,,GFP / fluorescence,5 µM,,CEM-GFP,,1%
Cc1ccc(-c2ccc3c(c2)C=C(C(=O)Nc2ccc(C[N+](C)(C)C4CCOCC4)cc2)CCC3)cc1,TB7 CLADE C,p24,1 µM,,PBMC,,100%
NC(=O)CC[C@H](NC(=O)COc1cccc(NC(=O)[C@@H](N)Cc2ccc(O)cc2)c1)C(=O)N[C@@H](Cc1c[nH]c2ccccc12)C(=O)N[C@@H](CC(=O)O)C(=O)N[C@@H](Cc1ccccc1)C(=O)NCC(=O)O,GUN1 WT,syncytia,100 µg/mL,,MT-4,,10–50%
O=C(O)C(O)c1ccccc1,IIIB,cytopathic effect,64 µg/mL,,MT-2,,99.9%
COC(=O)c1c(C(=O)OC)c(Cc2ccccc2)n(C)c1C,IIIB,p24 / ELISA,10 µM,,PBL,,2%
CCN(CC)C(=O)OCC1CN(Cc2cc(OC)c(OC)c(OC)c2)CCN1Cc1cc(OC)c(OC)c(OC)c1,BaL,RT activity,10 µM,,MDM,,75%
Nc1nc2c(nnn2[C@@H]2C[C@H](CO)[C@H](O)[C@@H]2O)c(=O)[nH]1,,cytopathic effect,125 µg/mL,,CEM-V/MT-2 + CEM,,0%
CCCCCCCCCC(O)CC(=O)O,,antigen,70.8 µg/mL,,HeLa37,,90%
CC(=O)C1=CN(C(=O)Oc2ccc(Cl)cc2)C=CC1C#N,IIIB,syncytia,50 µM,,MOLT-3,,0%
O=C(Nc1ncc([N+](=O)[O-])s1)c1ccccc1O,BaL,p24,10 µg/mL,,PBMC,,87.8%
CC(=O)O[C@H]1CC[C@H](O)CC[C@@H](C)/C=C/[C@@]2(C)CC[C@@H](C(C)(C)OC(C)=O)[C@H]12,,cytopathic effect / MTT,6.25 µM,,MT-2,,69%
C[C@@H]1CN(C(=O)c2ccccc2)CCN1C(=O)C(=O)c1c[nH]c2c(F)ccc(F)c12,,luciferase,10 µM,,HeLa + HELA CD4+/CCR5,,>98%
Cc1cc(C=O)cc(C)c1Oc1cc(Nc2ccc(C#N)cc2)nc2ccccc12,,RT activity / ELISA,1 µM,,,,34%
CCN(CC)C(=O)OCC1CN(C(=O)c2ccc(OC)c(OC)c2)CCN1C(=O)c1ccc(OC)c(OC)c1,BaL,RT activity,10 µM,,MDM,,42%
Nc1ccn([C@H]2CC[C@@H](CO)O2)c(=O)n1,IIIB,cytopathic effect / MTT,1.2 µM,,MT-2,,63%
CN(C[C@@H](CCN1CCC2(CC1)CS(=O)c1ccccc12)c1ccc(Cl)c(Cl)c1)S(=O)(=O)c1ccc(-c2ccon2)s1,YU2,,12.5 µM,,PBMC,,<95%
O=c1[nH]cc(F)c(=O)[nH]1,JEW,p24,0.5 µM,,PBMC,,0%
CCN(CC)C(=O)OCC1CN(C(=O)c2ccccc2)CCN1C(=O)c1ccccc1,BaL,RT activity,100 µM,,MDM,,43%
CCC(=O)Nc1ccn([C@H]2CC[C@@H](COC(=O)CC)O2)c(=O)n1,,cytopathic effect,25 µM,,,,0%
C[N+]1(C)[C@H](CC(=O)[O-])C[C@@H](O)[C@@H]1CO,,,10 µM,,293T,pseudotyped,2.5%
CCN(CC)C(=S)N=Nc1c(O)n(C)c2ccccc12,,plaque count,0.6 µg/mL,,H9/HIV-1 + H9,chronic infection,100%
O=C(C(=O)N1CCN(C(=O)c2ccc(O)cc2)CC1)c1c[nH]c2ccccc12,BRU,RT activity,10 µM,,MT-2,,87.7%
CCCCn1c(C)c(C(=O)OC)c(C(=O)OC)c1-c1ccccc1,IIIB,p24 / ELISA,1 µM,,PBL,,0%
CCN(CC)C(=S)S,LAV,RT activity,0.00000025 µg/mL,,PBL,,73%
Cc1ccnc2c1NC(=O)c1cccnc1N2C1CC1,,cytopathic effect / MTT,5 µM,,MT-2,,99%
CSc1ccc(C(=O)N2CCN(C(=O)C(=O)c3c[nH]c4cccc(Cl)c34)CC2)c(S)c1,,luciferase,10 µM,,HeLa + HELA CD4+/CCR5,,93%
Nc1ccn([C@@H]2O[C@H](COP(=O)(O)O[C@@H]3[C@H](O)[C@@H](COP(=O)(O)O[C@@H]4[C@H](O)[C@@H](COP(=O)(O)O[C@@H]5[C@H](O)[C@@H](COP(=O)(O)O)O[C@H]5n5ccc(N)nc5=O)O[C@H]4n4ccc(N)nc4=O)O[C@H]3n3ccc(N)nc3=O)[C@@H](O)[C@H]2O)c(=O)n1,,cytopathic effect / neutral red,25 µM,,MT-2,,36%
CC1CN(C(=O)C(=O)c2c[nH]c3cccc(F)c23)CCN1C(=O)c1ccccc1,,luciferase,10 µM,,HeLa + HELA CD4+/CCR5,,>98%
O=S(=O)(O)c1ccc(-c2c3nc(c(-c4ccc(S(=O)(=O)O)cc4)c4ccc([nH]4)c(-c4ccc(S(=O)(=O)O)cc4)c4nc(c(-c5ccccc5)c5ccc2[nH]5)C=C4)C=C3)cc1,IIIB,β-galactosidase,50 µg/mL,,MAGI,,81%

The first 10 rows once more:

smiles	strain	read by	tested at	changes	cells	setting	value
CC(=O)N(C)c1nc(C(=O)NCc2ccc(F)cc2)c(O)c2ncccc12		p24	0.125 µM		MT-4	10% FBS	>95%
C=C(C)[C@@H]1CC[C@]2(C(=O)NCCCCCCCC(=O)N[C@@H](CC(C)C)[C@@H](O)CC(=O)O)CC[C@]3(C)[C@H](CC[C@@H]4[C@@]5(C)CC[C@H](O)C(C)(C)[C@@H]5CC[C@]43C)[C@@H]12	LAI	syncytia	10 µM	I84S	HeLa P4 + HeLa		22%
Cc1cc2ccccc2c(-c2ccc3c4c(ccnc24)CCO3)c1[C@H](OC(C)(C)C)C(=O)O	NL4-3	p24	0.03 µM		PBMC		95%
CCN(CC)C(=O)OCC1CN(Cc2noc(=O)[nH]2)CCN1C(=O)c1cc(OC)c(OC)c(OC)c1	BaL	RT activity	100 µM		MDM		13%
Cc1cccc2c(C(=O)C(=O)N3CCN(C(=O)c4ccccc4)CC3)c[nH]c12		RT activity	10 µM		MT-2		>98%
CCCCn1c(C)c(C(=O)OC)c(C(=O)OC)c1Cc1ccccc1	IIIB	p24 / ELISA	1 µM		PBL		11%
C=CCCOC(=O)N1C=CC(C#N)C(C(C)=O)=C1	IIIB	syncytia	50 µM		MOLT-3		0%
N[C@H]1CONC1=O	N1T	p24	10 µg/mL		CEM		85%
N#Cc1cc(Cl)cc(Oc2c(Cl)ccc3c2cnn3Cc2[nH]nc3nc(N)ccc23)c1			0.043 µM		MT-4	50% human serum	>95%
Nc1nc(N)c2nnn([C@@H]3C[C@H](CO)[C@H](O)[C@@H]3O)c2n1		cytopathic effect	62.5 µg/mL		CEM-V/MT-2 + CEM		0%